The values below come from patent USRE43371E1 (priority 2004, dated 2012).

This data set is described as follows: general procedure: solution-phase peptide synthesis; TFFH (fragment coupling); PyAOP (cyclisation). The settings on record: late stage modification step.

“Ph-NH—C(S)-MeLeu-Val-MeLeu-Ala-D-Ala-MeLeu-MeLeu-MeVal-MeBmt (OAc)-Abu-Sar-OMe”: the step yield was 90%.
